For at least one entry, the source does not settle the construct or the ends of the probe. Tags and fusion partners may be left off the protein sequences shown.
Assays:
[1] = target: T1, CcpA (catabolite control protein A) (UniProt P99175); assay: EMSA; conditions: CcpA 0-600 pM, probe 20 fM (so in the source); recombinant protein; protein details: His-tag (pET28a, pETccpA); probe letters rebuilt from the primers and the genome
T1 sequence (looked up, limits assumed): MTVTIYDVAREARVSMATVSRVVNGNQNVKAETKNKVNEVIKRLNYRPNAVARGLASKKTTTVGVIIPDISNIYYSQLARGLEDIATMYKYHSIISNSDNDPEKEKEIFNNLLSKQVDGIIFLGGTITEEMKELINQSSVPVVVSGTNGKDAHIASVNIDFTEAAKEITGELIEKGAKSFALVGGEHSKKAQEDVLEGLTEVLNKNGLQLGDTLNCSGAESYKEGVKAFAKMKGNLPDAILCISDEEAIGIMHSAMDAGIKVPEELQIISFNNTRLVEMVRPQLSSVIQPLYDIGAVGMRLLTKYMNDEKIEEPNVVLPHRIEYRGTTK

[2] = target: T1, CcpA (catabolite control protein A); assay: competition with a labelled probe; conditions: unlabeled Psak1, 200-fold excess (4 pM), blocks complex with biotin-Psak1; recombinant protein; protein details: His-tag (pET28a, pETccpA); probe letters rebuilt from the primers and the genome

Does “GGCGCTTCCTCCAAATATAATATATTTGTTTTTATTTATCTCTTTTTATAGCTAACACCCTTATTTAAGATGATAAATATCAACAACTTCATTTTATATTGAGAAAATATTAAAAATCAATAAAATATTAAAAGAAACTAAACTTACATTAAAAAATAATTAACAAATATTTAACATTTTAACCTAAGAATTAAAACACTTCTTTCACAATCAATCTCTCATGCCATATCCACTCATTATGATTGTTCCAATAAATGCGACACCAACCATCTATAATTTCAAACACATATATTAATGTTCCAGGCGCGTATACAGCCTGTCCAACATCGAATCTATAGTTAGTACGATTATCACCGTATCTAGTGGCTGAAGTAGCACCTAAGCCGTCGATTTTCGCATTAAAATAAGCACCTTTTGACCATTTAAGGTTATAAGGCGCTTTACTTCCAACTGTTATTTTACTTGCA (double strand) [Psak1]” bind [1]?
Result: binds

Does “GGCGCTTCCTCCAAATATAATATATTTGTTTTTATTTATCTCTTTTTATAGCTAACACCCTTATTTAAGATGATAAATATCAACAACTTCATTTTATATTGAGAAAATATTAAAAATCAATAAAATATTAAAAGAAACTAAACTTACATTAAAAAATAATTAACAAATATTTAACATTTTAACCTAAGAATTAAAACACTTCTTTCACAATCAATCTCTCATGCCATATCCACTCATTATGATTGTTCCAATAAATGCGACACCAACCATCTATAATTTCAAACACATATATTAATGTTCCAGGCGCGTATACAGCCTGTCCAACATCGAATCTATAGTTAGTACGATTATCACCGTATCTAGTGGCTGAAGTAGCACCTAAGCCGTCGATTTTCGCATTAAAATAAGCACCTTTTGACCATTTAAGGTTATAAGGCGCTTTACTTCCAACTGTTATTTTACTTGCA (double strand) [Psak1]” bind [2]?
Result: binds
